{
  "source": "patent US20220305051A1",
  "about": "(priority 2019, published 2022)",
  "key": {"[1]": {"system": "exposure to chlorine, bromine and/or phosgene gas", "test": "Animal models of chlorine, bromine and/or phosgene gas poisoning, post-exposure nitrite (summary)", "conditions": "planned dosing study, Br2 or COCl2 exposure"}, "[2]": {"system": "exposure to chlorine, bromine and/or phosgene gas", "conditions": "IM injection post-Cl2 gas exposure, mice and rats; cited from earlier work"}},
  "data": [
    {"smiles": "O=NO", "note": "[nitrite, sodium nitrite]", "values": [
      {"measurement": "Nitrite dose needed for similar protection, females vs males", "setting": "[1]", "value": "higher nitrite doses will be required for females compared to males"},
      {"measurement": "ALI and reactive airways", "setting": "[2]", "value": "decreases ALI and reactive airways"}
    ]}
  ]
}
